Test results reported in paper PMC9088311, “Cyclic Thiosulfonates for Thiol-Mediated Uptake: Cascade Exchangers, Transporters, Inhibitors” (JACS Au, 2022).

Assay: Dynamic covalent ring opening with thiol 10, 1H NMR kinetics
Type: physicochemical
Conditions: for K, equilibrium of ring opening: phosphate buffer/DMSO-d6 9:1, equimolar 10
Method: The dynamic covalent opening of CTO 3 with thiols yields product 9 with a disulfide and a sulfinate (Figure 3B). Consistent with short chalcogen bonds found in silico, the opening of CTO 3 was instantaneous on an NMR timescale with most thiols. To decelerate ring opening, bulky thiols were considered in combination with lowered pH to deactivate the nucleophile. With N-Ac-D-penicillamine 10, the opening of 5 mM CTO 3 in phosphate buffer/DMSO-d6 9:1 was still immediate at pD 6.7 but became detectable in ^1H NMR spectroscopy kinetics under more acidic conditions. The ring-opening rate constants k^O were estimated by fitting the initial velocities to second-order kinetics. Only lower bound rates were approximated from the earliest determined substrate conversions when reactions were still too fast despite the unfavorable conditions. At pD 5.4, dynamic covalent ring opening of CTO 3 with equimolar tertiary thiol 10 occurred with k^O > 0.49 M^–1 s^–1 and equilibrated at K = 6.0 × 10^3 M^–1 (Table 1, entry 1, Figures S4 and S5). At pD 2.7, further deceleration to k^O = 0.10 M^–1 s^–1 shifted the equilibrium to K = 500 M^–1 (Table 1, entry 2, Figures S6 and S7). […] At equilibrium, the concentration of thiol 10 further decreased slowly due to oxidation into the homodimer (Figure 3C, diamonds).
Equilibrium constants for reactions with two reactants A and B and a product C are […]
3.1.1. Dynamic Covalent Ring Opening with Thiols
General procedure A (at 5 mM): To a solution of deuterated sodium phosphate (200 mM in D 2O, pD 2.7 or 5.4, 180 mM final concentration), a stock solution of substrate (0.10 M in DMSO-d6, 5.0 mM final concentration) was added and stirred. Then a stock solution of 10 (0.10 M in DMSO- d6, 5.0 mM final concentration) was added and vigorously stirred at room temperature. The solution was transferred immediately to an NMR tube and NMR data were recorded repeatedly. The concentration of the substrate or thiol at each time plot was calculated by comparing the integrals of the peaks indicated with arrows in the figures, and plotted. The data points were fitted to obtain k1 with the Equation (S6) or (S7) using Graphpad Prism.
General procedure B (at 2 mM): To a solution of deuterated sodium phosphate (200 mM in D 2O, pD 2.7 or 5.4, 180 mM final concentration), DMSO- d6 (10% DMSO- d6 in the reaction mixture) and a stock solution of substrate (0.10 M in DMSO- d6, 2.0 mM final concentration) were added and stirred. Then a stock solution of 10 (0.10 M in DMSO- d6, 2.0 mM final concentration) was added and vigorously stirred at room temperature. The solution was transferred immediately to an NMR tube and NMR data were recorded repeatedly. The concentration of the substrate or thiol at each time plot was calculated by comparing the integrals of the peaks indicated with arrows in the figures, and plotted. The data points were fitted to obtain k1 with the Equation (S6) or (S7) using Graphpad Prism.
General procedure C (for thiosulfinates): To a solution of deuterated sodium phosphate (200 mM in D 2O, pD 5.4, 170 mM final concentration), a stock solution of substrate (0.10 M in DMSO- d6, 5.0 mM final concentration) was added and stirred. Then a stock solution of 10 (0.10 M in DMSO- d6, 10 mM final concentration) was added and vigorously stirred at room […]
data points were fitted to obtain k1 with the Equation (S14) or (S16) using Graphpad Prism. […]
3.1.2. Dependence of Ring Opening on Proticity
A mixture of deuterated phosphoric acid and NaOD (30% in D 2O), which gave pD 2.7 in D2O, was used as buffer in all solvent mixtures. To a solution of deuterated sodium phosphate (20 mM final concentration) in a mixture of D 2O and DMSO- d6 (540 μL, final D 2O content: […]
concentration) was added and stirred. Then a stock solution of 10 (0.10 M in DMSO- d6, 5.0 mM final concentration) was added and vigorously stirred at room temperature. The solution was transferred immediately to an NMR tube and 1H NMR data were recorded repeatedly. […]

Structure (SMILES): O=S1(=O)C[C@H](O)[C@H](O)CS1 (stereo in doubt) [Compound 3, (4S,5R)-4,5-dihydroxy-1,2-dithiane-1,1-dioxide]
- K, equilibrium constant for ring opening and closing (estimated pD 2.7, Na+ phosphate 20 mM, 2% D2O, 5 mM): 0.73 10^3 M^–1
- K, equilibrium constant for ring opening and closing (estimated pD 2.7, Na+ phosphate 20 mM, 5% D2O, 5 mM): 0.94 10^3 M^–1
- K, equilibrium constant for ring opening and closing (estimated pD 2.7, Na+ phosphate 20 mM, 8% D2O, 5 mM): 1.3 10^3 M^–1
- K, equilibrium constant for ring opening and closing (estimated pD 2.7, Na+ phosphate 20 mM, 10% D2O, 5 mM): 2.1 10^3 M^–1
- K, equilibrium constant for ring opening and closing (estimated pD 2.7, Na+ phosphate 20 mM, 30% D2O, 5 mM): 2.3 10^3 M^–1
- K, equilibrium constant for ring opening and closing (estimated pD 2.7, Na+ phosphate 20 mM, 50% D2O, 5 mM): 1.8 10^3 M^–1
- K, equilibrium constant for ring opening and closing (estimated pD 2.7, Na+ phosphate 20 mM, 70% D2O, 5 mM): 1.0 10^3 M^–1
- K, equilibrium constant for ring opening and closing (estimated pD 2.7, Na+ phosphate 20 mM, 90% D2O, 5 mM): 0.71 10^3 M^–1
- K, equilibrium constant for ring opening and closing (pD 2.7, 90% D2O, 5 mM): 0.50 ^j 10^3 M^–1
- K, equilibrium of ring opening (pD 2.7, 5 mM): 500 M^–1
- K, equilibrium constant for ring opening and closing (pD 5.4, 90% D2O, 5 mM): 6.0 10^3 M^–1
- K, equilibrium of ring opening (pD 5.4, 5 mM): 6.0 × 10^3 M^–1

Structure (SMILES): O=C1O[C@H]2CSS(=O)(=O)C[C@H]2O1 [Compound 11]
- K, equilibrium constant for ring opening and closing (pD 2.7, 90% D2O, 2 mM): >170 10^3 M^–1

Structure (SMILES): O=S1(=O)C=C[C@@H](O)CS1 [Compound 12]
- K, equilibrium constant for ring opening and closing (pD 2.7, 90% D2O, 2 mM): 21 10^3 M^–1

Structure (SMILES): CC1(C)O[C@H]2CSS(=O)(=O)C[C@H]2O1 [Compound 13]
- K, equilibrium constant for ring opening and closing (pD 2.7, 90% D2O, 2 mM): 17 10^3 M^–1

Structure (SMILES): O=S1(=O)C[C@H](O)[C@@H](O)CS1 [Compound 15]
- K, equilibrium constant for ring opening and closing (pD 2.7, 90% D2O, 5 mM): 2.0 10^3 M^–1
